Assay results taken from US12606829B2, “Compositions for herpesvirus transcriptional feedback circuit disruption and uses thereof” (priority 2018, dated 2026).

Test system: HSV-1 (17syn+ IE175-YFP)
Test: Continuous-culture experiment, HSV-1 passaged on ARPE-19 cells
Format: cell-based

`Nc1nc2c(ncn2COCCO)c(=O)[nH]1` [ACV, acyclovir] was tested, and the “day at which resistance (positive slope of the titering dynamics) begins” value (HSV-1, ACV) was 4 days and the “emergence of HSV-1 resistance” value (MOI=1, ACV, supernatant transferred every 2 days over 3 rounds) was “within two rounds of infection”.
